Pooled drug test results. Numbers come from NIAID ChemDB, via PubChem.

All rows: tests in culture; species: Rhinovirus

Blank or dashed fields: not listed here. ECn is the concentration giving n% inhibition of infection, replication or growth. A number after MIC or MFC names an inhibition level or a share of isolates. Percent inhibition refers to the dose given; in toxicity tests it is the harm to the cells. Neighbouring rows are from separate reports.

structure | measure | strain or isolate | read by | dose | cell line | value
CCOC(=O)/C=C/[C@H](C[C@@H]1CCNC1=O)NC(=O)[C@@H](CC(=O)[C@@H](NC(=O)c1cc(C)on1)C(C)C)Cc1ccc(F)cc1 | EC50 | Isolate 20 | cytopathic effect / visual reading | - | OHIO HELA-I | <0.01 µg/mL
Cc1cc(CCCCCCOc2ccc(C3=NCCO3)cc2)on1 | MIC | TYPE 2 | - | - | - | 0.1 µg/mL
Cc1cc(OCCCc2ccc(C(F)F)nn2)cc(C)c1-c1noc(C(F)F)n1 | EC80 | serotypes 3 4 5 9 16 18 38 66 75 67 | cytopathic effect | - | HeLa | 0.31 µg/mL
CC(=O)c1coc(CCCOc2c(C)cc(-c3noc(C)n3)cc2C)c1 | EC80 | 15 serotype mixtures | cytopathic effect | - | HeLa | 0.4 µM
CSc1nsc(-c2ccc(OCCCCOc3ccc(C#N)cc3)cc2)c1C#N | EC50 | Serotype 15 (group B) | cytopathic effect | - | HELA-OHIO | >2 µM
CCCN=C1CCC(C(=O)NCCC(=N)N)N1 | MIC | Serotype 2 | - | - | - | >100 µg/mL
Cc1cc(OCCCc2ccc(F)nn2)cc(C)c1-c1noc(C(F)(F)F)n1 | EC80 | serotypes 3 4 5 9 16 18 38 66 75 67 | cytopathic effect | - | HeLa | 0.44 µg/mL
N#Cc1ccc(C2=Cc3ccccc3OC2)cc1 | EC25 | Serotype 1B | cytopathic effect | - | HeLa | 40 µM
CN(C)c1nc(C(F)(F)F)nc2c1ncn2Cc1ccc(Cl)c(N)c1 | inhibition | Serotype 29 | plaque count | 8 µM | M-HELA | 26%
Cc1cc(CCCCCOc2ccc(C3=NCCO3)cc2C)on1 | MIC | TYPE 14 | - | - | - | 0.8 µM
CN(C)c1nc(C(F)(F)F)nc2c1ncn2Cc1ccc(C(F)(F)F)cc1 | EC50 | Serotype 8 | plaque count | - | M-HELA | >8 µM
CCCc1cc(CCCOc2c(C)cc(-c3nnc(C)o3)cc2C)on1 | EC80 | serotype 2 1A 1B 6 14 21 22 15 25 30 50 67 89 86 41 | plaque count | - | HeLa | 0.06 µg/mL
Cc1cc(Cn2cnc3c(N(C)C)nc(C(F)(F)F)nc32)ccc1Cl | EC50 | Serotype 8 | plaque count | - | M-HELA | >8 µM
O=c1cc(/C=C/c2ccccc2)oc2ccccc12 | EC10 | Serotype 14 | plaque count | - | HeLa | 25 µM
CSc1nsc(-c2ccc(OCCCCOc3ccccc3)cc2)c1C#N | EC50 | Serotype 41 (group B) | cytopathic effect | - | HELA-OHIO | >20 µM
O=S(=O)([O-])c1ccccc1S(=O)(=O)[O-] | inhibition | - | cytopathic effect | 10 µg/mL | Human embryonic lung cells | 10%
CN(C)c1ccc(Cn2cnc3c(N(C)C)nc(C(F)(F)F)nc32)cc1 | inhibition | Serotype 8 | plaque count | 8 µM | M-HELA | 37%
N#Cc1cc([N+](=O)[O-])ccc1Oc1ccc(Cl)c(Cl)c1 | inhibition | TYPE 1A | - | 0.39 µg/mL | VERO | 37%
CC1CC(N)=NC1C(=O)NCCC(=N)N | MIC | Serotype 2 | - | - | - | >100 µg/mL
N=C(N)c1ccc(C2CCc3cc(C(=N)N)ccc3O2)cc1 | EC25 | Serotype 1B | cytopathic effect | - | HeLa | 40 µM
Cc1ccc(CCCOc2cc(C)c(-c3noc(C(F)F)n3)c(C)c2)nn1 | EC80 | serotypes 3 4 5 9 16 18 38 66 75 67 | cytopathic effect | - | HeLa | 0.11 µg/mL
Cc1ccc(C(=O)CCCCOc2ccc(C#N)cc2)cc1 | MIC80 | serotype 1A 1B 2 6 14 15 21 22 25 29 30 41 42 45 59 63 67 70 72 86 89 | - | - | - | >146 µM
Cc1cc(CCCOc2c(C)cc(-c3noc(C)n3)cc2C)on1 | MIC | Serotype 14 | - | - | - | 0.07 µM
CSc1nsc(-c2ccc(OCCOc3ccc([N+](=O)[O-])cc3)cc2)c1C#N | EC50 | Serotype 59 (group B) | cytopathic effect | - | HELA-OHIO | >2 µM
Nc1nc2c(ccn2[C@@H]2C[C@H](CO)[C@@H](O)[C@H]2O)c(=O)[nH]1 | MIC | TYPE 31 | - | - | - | >100 µg/mL
CC(=O)c1ccc(CCCOc2cc(C)c(-c3noc(C(F)F)n3)c(C)c2)nn1 | EC80 | serotypes 3 4 5 9 16 18 38 66 75 67 | cytopathic effect | - | HeLa | 0.19 µg/mL
FC(F)(F)c1cccc(C2CCN(c3ccc(Cl)nn3)C2)c1 | inhibition | 100 serotypes | - | 0.156 µg/mL | - | 53%
CSc1nsc(-c2ccc(OCc3ccccc3)cc2)c1C#N | EC50 | Serotype 85 (group B) | cytopathic effect | - | HELA-OHIO | 1 µM
Fc1cccc(Cn2cnc3c(Nc4cccc(F)c4)nc(C(F)(F)F)nc32)c1 | EC50 | Serotype 27 | plaque count | - | M-HELA | >5 µM
Cc1cc(CCCOc2c(C)cc(-c3noc(C(F)(F)F)n3)cc2C)on1 | EC90 | Serotype 10 | - | - | - | 0.3 µM
CN(C)c1nc(C(F)(F)F)nc2c1ncn2Cc1ccc(Cl)c(Cl)c1 | inhibition | Serotype 3 | plaque count | 8 µM | M-HELA | 40%
CC(=O)c1ccoc1CCCOc1c(C)cc(-c2noc(C)n2)cc1C | EC80 | 15 serotype mixtures | cytopathic effect | - | HeLa | 1.9 µM
CCc1ccc(CCCOc2ccc(-c3noc(C(F)(F)F)n3)c(C)c2)nn1 | EC80 | serotypes 3 4 5 9 16 18 38 66 75 67 | cytopathic effect | - | HeLa | 0.16 µg/mL
Cc1cc(CCCOc2c(C)cc(-c3nc(C)no3)cc2C)on1 | MIC | Serotype 14 | - | - | - | 0.19 µM
N#CCCNC(=O)C1CCC(=O)N1 | MIC | Serotype 2 | - | - | - | >100 µg/mL
CSc1nsc(-c2ccc(OCCOc3ccc(C#N)cc3)cc2)c1C#N | EC50 | Serotype 14 (group A) | cytopathic effect | - | HELA-OHIO | >2 µM
Cc1nc(-c2cc(C)c(OCCCc3ccco3)c(C)c2)no1 | EC80 | serotypes 2 14 1A 1B 6 21 22 15 25 30 50 67 89 86 41 | cytopathic effect | - | HeLa | 0.83 µg/mL
Cc1cc(CCCOc2c(C)cc(-c3noc(C)n3)cc2C)on1 | EC80 | serotype 2 1A 1B 6 14 21 22 15 25 30 50 67 89 86 41 | plaque count | - | HeLa | 0.069 µg/mL
CSc1nsc(-c2ccc(OCCCOc3ccc([N+](=O)[O-])cc3)cc2)c1C#N | EC50 | Serotype 14 (group A) | cytopathic effect | - | HELA-OHIO | >1 µM
CCO/N=C/c1ccc(OCCC2CCN(c3ccc(Cl)nn3)CC2)cc1 | EC50 | CH79 (ICAM-1 receptor group 38) | neutral red | - | KB | 0.023 µM
O=S(=O)([O-])c1cc(NS(=O)(=O)c2ccccc2)c2c(S(=O)(=O)[O-])cc(S(=O)(=O)[O-])cc2c1 | inhibition | - | cytopathic effect | 50 µg/mL | Human amnion AV3 cells | 0%
Cc1cc(CCCCCOc2cc(Cl)c(-c3nnco3)c(Cl)c2)on1 | MIC80 | Serotype 21 | - | - | - | 0.24 µg/mL
O=S(=O)([O-])c1ccc2c(O)cc(S(=O)(=O)[O-])cc2c1 | inhibition | - | cytopathic effect | 10 µg/mL | Human embryonic lung cells | 30%
N#CCCNC(=O)C1CCC(N)=N1 | MIC | Serotype 2 | - | - | - | 100 µg/mL
Cc1cc(CCCCCCCOc2ccc(C3=NCCO3)cc2)on1 | MIC | TYPE 14 | - | - | - | 0.41 µM
CSc1nsc(-c2ccc(OCCc3ccccc3)cc2)c1C#N | EC50 | Serotype 51 (group B) | cytopathic effect | - | HELA-OHIO | >20 µM
Cc1cc(OCCCc2ccc(=S)[nH]n2)cc(C)c1-c1noc(C(F)F)n1 | EC80 | serotypes 3 4 5 9 16 18 38 66 75 67 | cytopathic effect | - | HeLa | 0.18 µg/mL
CC(CC(=N)N)NC(=O)C1CCC(N)=N1 | MIC | Serotype 2 | - | - | - | >100 µg/mL
CC(C)Oc1ccc(Cn2cnc3c(N(C)C)nc(C(F)(F)F)nc32)cc1 | inhibition | Serotype 21 | plaque count | 8 µM | M-HELA | 40%
Cc1cc(CCCCCOc2c(Cl)cc(C3=NCCO3)cc2Cl)on1 | EC50 | TYPE 14 | plaque count | - | HeLa | 0.82 µg/mL
Cc1ccc(CCCCCOc2ccc(C3=NCCO3)cc2)s1 | MIC80 | serotype 1A 1B 2 6 14 15 21 22 25 30 41 50 67 86 89 | - | - | - | 30.39 µM
O=P1(O)OCC2O[C@@H](n3cnc4c(SCc5ccccc5)ncnc43)[C@H](O)C2O1 | MIC | TYPE 8 | - | - | - | 100 µg/mL
CCCc1cc(CCCOc2c(C)cc(-c3noc(C)n3)cc2C)on1 | EC80 | serotype 2 1A 1B 6 14 21 22 15 25 30 50 67 89 86 41 | plaque count | - | HeLa | 0.1 µg/mL
CCOC(=O)c1ccc(OCCCCC(=O)c2ccc(C)c(Cl)c2)cc1 | MIC80 | serotype 1A 1B 2 6 14 15 21 22 25 29 30 41 42 45 59 63 67 70 72 86 89 | - | - | - | >267 µM
N#Cc1ccc2c(c1)CC(c1ccccc1)CO2 | EC25 | Serotype 1B | cytopathic effect | - | HeLa | 8 µM
CCOC(=O)c1ccc(OCCC2CCN(c3ccc(C)nn3)CC2)cc1 | EC90 | Serotype 14 | - | - | - | 0.13 µM
Cc1cc(CCCCCOc2c(Cl)cc(C3=NCCO3)cc2Cl)on1 | MIC80 | serotype 1A 1B 2 6 14 15 21 22 25 29 30 41 42 45 59 63 67 70 72 86 89 | - | - | - | 2.32 µM

Again, the opening 4 rows:

CCOC(=O)/C=C/[C@H](C[C@@H]1CCNC1=O)NC(=O)[C@@H](CC(=O)[C@@H](NC(=O)c1cc(C)on1)C(C)C)Cc1ccc(F)cc1 ; measure: EC50 ; strain or isolate: Isolate 20 ; read by: cytopathic effect / visual reading ; cell line: OHIO HELA-I ; value: <0.01 µg/mL
Cc1cc(CCCCCCOc2ccc(C3=NCCO3)cc2)on1 ; measure: MIC ; strain or isolate: TYPE 2 ; value: 0.1 µg/mL
Cc1cc(OCCCc2ccc(C(F)F)nn2)cc(C)c1-c1noc(C(F)F)n1 ; measure: EC80 ; strain or isolate: serotypes 3 4 5 9 16 18 38 66 75 67 ; read by: cytopathic effect ; cell line: HeLa ; value: 0.31 µg/mL
CC(=O)c1coc(CCCOc2c(C)cc(-c3noc(C)n3)cc2C)c1 ; measure: EC80 ; strain or isolate: 15 serotype mixtures ; read by: cytopathic effect ; cell line: HeLa ; value: 0.4 µM